# Data taken from the supplement of paper PMC9931576.
# Human monoclonal antibodies against the spike receptor-binding domain (heavy:light variable regions). IC50 against pseudoviruses bearing the spike of naturally observed variants; lower = stronger; >10 µg/ml means not reached at the top dose. No active / inactive call. The stated detection limit is 0.0005 µg/ml; values near or below 0.001 µg/ml lie at the floor of the assay.
# B1: BD57-0267 (protein)
# chain 1: QVQLQESGPGLVKPSETLSLTCIVSGASITDSHWSWIRQPPGKGLEWIGYLYYSGYTDYNPSLKSRVTISLDTPKNQFSLKVSSVTAADTAVYYCARLRLGKILTARWFDPWGQGTLVTVSS
# chain 2: QSVLTQPPSVSGAPGQRVTISCTGSSSNIGAGYDVHWYQQFPGTAPELLIYGNNNRPSGVPDRFSGSKSGTSASLAITGLQAEDEANYFCQSHDNSLSGSIFGGGTKLTVL
# B2: BD57-0268 (protein)
# chain 1: QVQLRESGPGLVKPSQTLSLTCTVSGGYISSGGAYWSWIRQRPGKGLEWIGYIHNSGTTYYNPSLKSRSTILVDTSENQFSLKLNSVTAADTAVYYCARVKTYYYDSNLYPVSAFDYWGQGALVSVSS
# chain 2: SYDLTQPPSLSVSPGQTARITCSGDKLGTKYPCWYQLKTGQSPVLVIYQDNKRPSGIPERFSASTSGNTATLTISGAQPMDEANYYCQAWDSSLWVFGGGTQLTVL
# B3: BD57-0269 (protein)
# chain 1: QKQLVQSGPEVKKPGTSVKVSCKASGFTFITSAVQWVRQARGQRLEWIGWIAVGSGTTDYTQKFQERVTITRDMSTTTAYMELRSLRSEDTAVYYCAAPDCNRTSCRDGFDIWGQGTMVTVSS
# chain 2: EIVLTQSPGTLSLSPGERATLSCRASQSVSRSYLGWYQQKPGQAPRLVIDGALRRATGIPDRFSGSGSGTDFTLTISRLEPEDFAVYYCQQYGSSPFTFGQGTKLEIK
# B4: BD57-0280 (protein)
# chain 1: EVQLVQSGAEVKKPGESLKISCKGSGYSFTTYWIGWVRQMPGKGLEWMGIIYPGDSDTTYSPSFQGHVTISADKSISTAYLQWSSLKASDTAMYYCARRSDSGSFPSLDYWGQGTLVTVSS
# chain 2: DIQMTQSPSSLSASVGDRITITCRASQSISSYLNWYQQKPGKVPKLLIYAASSLQSGVPSRFRGSGSGTDFTLTISSLQPEDFATYYCQQSFSTMGLTFGGGTKVEIK
# B5: BD57-0282 (protein)
# chain 1: QVQLVESGGGVVQPGRSLRLSCAVSRFTFSRYPMHWVRQTPGKGLEWVAAITSDGTGKFYAESVKGRFTISRDNSKNTMYLQMNSLRPEDTAMYYCAREGDMSMVAILDYWGQGALVTVSS
# chain 2: DIQMTQSPTSLSASVGDRVTITCRASQSIQSYLNWYQQKPGKAPKLLIYSASTLHSGVPSRFSGSGSGTDFTLTISSLQPEDFATYYCQQSYSSFPLTFGGGTKVEIK
# B6: BD57-0288 (protein)
# chain 1: EVQLVESGGGLVQPGRSLRLSCAASGFTFDDYAMHWVRQAPGKGLEWVSGISWNGGTIGYADSVKGRFIISRDNAKNSLHLQMNWLRSEDSGFYYCAKDEGDYGNHHHYTMHVWGQGTSVIVSS
# chain 2: QSALTQPASVSGSPGQSITISCTGTSSDVGGYNYVSWYQQHAGRAPKLMIYDVTNRPSGVSDRFSGSKSGNTASLTISGLQAEDEADYYCSSYTRSSEVVFGGGTKLTVL
# B7: BD57-0289 (protein)
# chain 1: QVQLVQSGAEVRKPGASVKVSCEASGYTFTDYFIHWVRQAPGQGLEWMGWINPNSGGTKYTQKFQGRVTMTRDTSNNTVYMELNSLRSDDTAVYFCARGELELRVYYYYLDVWGTGTTVTVSS
# chain 2: SYVLTQPPSVSVAPGKTARITCGGNDIGSKSVNWYQQKPGQAPVLVIYYDSGRPSGIPERFSGSNSGNPATLTISRVEAGDEADYYCQLWDFSSDHVVFGGGTKLTVL
# B8: BD57-0303 (protein)
# chain 1: QLVQSGAEVKKPGSSVKVSCKASGGTRNSYAITWVRQVPGQGLEWMGRIIPIFNVVNYAQNFQGRVTITADTSTATVYMDTATFYMELTTLTSEDTAVYFCARDRPPFGSGRVWGQGTLVTVST
# chain 2: DIQMTQSPSSLSASVGDRVTITCQAGQDIGNFLNWYQQKPGKAPKLLISEASNLETGVPSRFSGSGSGTHFNFTISSLQPEDIATYYCQQYDHFLTFGPGTKVNIK
# B9: BD57-0304 (protein)
# chain 1: EVQLVESGGGLEQPGRSLRLSCAASGFTFDDYAMHWVRQAPGKGLEWVSGISWNSDTVGYADSVKGRFTISRDNAKNSLYLQMNSLRADDTALYYCAKDLNYDSSGYLRNGMDVWGQGTTVTVSS
# chain 2: DIQLTQSPSSLSASVGDRVTITCRASQGISSYVAWYQQKPGKAPNLLIYAASTLQGGVPSRFSGSGSGTDFTLTISSLQPEDFATYYCQQLYSYPVTFGQGTRLEIK
# B10: BD57-0313 (protein)
# chain 1: QVQLVQSGAEVKKPGSSVKVSCKASGGTFSSSAVSWVRQAPGQGLEWMGSIIPIYGTTNFAQKFQGRVTITADGSSVVYMELTSLKSDDTAVYYCARDPIVVDPPESSPSYYFYYMDVWGNGTTVIVSS
# chain 2: EAVLTQSPGTLSLSPGERATLSCRASQTVSGNYLAWYQQKPGQAPRLLIYGASRRATGISDRFSGSGSGTDFTLSISRLKPEDFAVYYCQQYGSSYTFGPGTKLEIK
# B11: BD57-0316 (protein)
# chain 1: EVQLVESGGGLVQPGRSLRLSCAASGFTFDDYAMHWVRQTPGKGLEWVSGISWDSGDVGYADSVKGRFTISRDNAKNSLYLQMNSLRAEDTALYYCARGRLGHYDSWNWFDPWGQGTLVIVSS
# chain 2: DIVMTQSPDSLAVSLGERATINCKSSQSVLYSSNNKNYLAWYQQKPGQPPKLLIYWASTRQSGVPDRLSGSGSGTDFTLTISSLQAEDVALYYCQQYYTTPLTFGGGTKVEIK
# B12: BD57-0321 (protein)
# chain 1: EVQLLESGGGLVQPGGSLRLSCSASGFTFRYSAINWVRQAPGKGLEWVSVISGSGDTTYYADSVKGRFTISRDNSMDTVYLEMNSLRAEDTAVYFCAKDRFAGPGGSVFEFWGQGTLVIVSA
# chain 2: DIQMTQSPSSLSASVGDRVTITCQASQDITNFLNWYHQKPGKAPKLLIYDASNLETGVPSRFSGSASGTDFTLTISSLQPEDIATYYCQQYANLPYTFGQGTKLELK
# Target: SARS-CoV-2 Omicron BA.1 spike pseudovirus
# Assay: pseudovirus neutralization IC50; higher = weaker neutralization
# Method: (§1)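 Single-round VSV luciferase pseudovirus mixed with antibody dilutions for 1 h and put on Huh-7 cells for about a day; IC50 from the dose curve.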
row,Binder,pseudovirus neutralization IC50 [µg/mL]
1,B1,0.00506
2,B2,> 10
3,B3,0.00183
4,B4,2.83
5,B5,3.16
6,B6,0.106
7,B7,2.58
8,B8,0.0632
9,B9,0.00906
10,B10,0.227
11,B11,4.68
12,B12,3.96

# Target: SARS-CoV-2 Omicron BA.2 spike pseudovirus
# Assay: as above
# Method: as §1
row,Binder,pseudovirus neutralization IC50 [µg/mL]
1,B1,0.0129
2,B2,> 10
3,B3,0.00257
4,B4,3.02
5,B5,2.35
6,B6,0.096
7,B7,4.43
8,B8,0.00141
9,B9,0.00634
10,B10,0.227
11,B11,3.34
12,B12,3.81

# Target: SARS-CoV-2 Omicron BA.2.75 spike pseudovirus
# Assay: as above
# Method: as §1
row,Binder,pseudovirus neutralization IC50 [µg/mL]
1,B1,0.0229
2,B2,> 10
3,B3,0.0013
4,B4,5.6
5,B5,4.69
6,B6,0.166
7,B7,4.03
8,B8,0.00548
9,B9,0.0163
10,B10,0.409
11,B11,2.37
12,B12,2.45

# Target: SARS-CoV-2 Omicron BA.5 spike pseudovirus
# Assay: as above
# Method: as §1
row,Binder,pseudovirus neutralization IC50 [µg/mL]
1,B1,0.0173
2,B2,> 10
3,B3,0.00322
4,B4,4.09
5,B5,3.04
6,B6,0.446
7,B7,> 10
8,B8,0.00594
9,B9,0.0042
10,B10,0.181
11,B11,7.09
12,B12,2.91

# Target: SARS-CoV-2 Omicron BQ.1.1 spike pseudovirus
# Assay: as above
# Method: as §1
row,Binder,pseudovirus neutralization IC50 [µg/mL]
1,B1,0.313
2,B2,> 10
3,B3,0.0854
4,B4,3.3
5,B5,4.22
6,B6,> 10
7,B7,> 10
8,B8,> 10
9,B9,> 10
10,B10,> 10
11,B11,> 10
12,B12,> 10

# Target: SARS-CoV-2 Omicron XBB spike pseudovirus
# Assay: as above
# Method: as §1
row,Binder,pseudovirus neutralization IC50 [µg/mL]
1,B1,1.79
2,B2,> 10
3,B3,> 10
4,B4,3.56
5,B5,4.64
6,B6,6.66
7,B7,> 10
8,B8,> 10
9,B9,> 10
10,B10,> 10
11,B11,8.97
12,B12,> 10

# Target: SARS-CoV-2 early D614G spike pseudovirus
# Assay: as above
# Method: as §1
row,Binder,pseudovirus neutralization IC50 [µg/mL]
1,B1,0.00161
2,B2,> 10
3,B3,0.0027
4,B4,3.9
5,B5,1.7
6,B6,0.0974
7,B7,5.2
8,B8,0.00132
9,B9,0.00272
10,B10,0.0959
11,B11,0.695
12,B12,> 10
